Measured values from several laboratories, pooled; numbers as filed in NIAID ChemDB.

All rows: growth or infection tests; organism: HIV-1; cell line: CEM; measure: EC50

Conditions beyond the fields shown may differ between rows.

SMILES	strain or isolate	mutations	method	result
Cc1cn([C@H]2CC[C@@H](OCC(=O)O)C2)c(=O)[nH]c1=O	IIIB		syncytia	>250 µM
O=C(NCCCCNC(=O)c1cc2cc3c(cc2[nH]1)OCO3)c1cc2cc3c(cc2[nH]1)OCO3			cytopathic effect / MTT	>200 µM
CCOCn1c(Cc2cccc3ccccc23)c(CC)c(=O)[nH]c1=O	LAV			0.104 µM
Nc1nc(OC[C@H]2CC[C@@H](COCc3ccccc3)O2)c2[nH]cnc2n1	IIIB		syncytia	>50 µM
CCCCCCCCCC[N+](C)(C)CCCNCc1c(O)cc2c(c1O)-c1cc(ccc1O)[C@H]1NC(=O)[C@@H]3NC(=O)C4NC(=O)[C@@H](Cc5ccc(c(Cl)c5)Oc5cc3cc(c5O)Oc3ccc(cc3Cl)[C@@H](O)[C@H](NC1=O)C(=O)N[C@@H]2C(=O)O)NC(=O)[C@H](N)c1ccc(O)c(c1)Oc1cc(O)cc4c1	IIIB		syncytia	2.8 µM
Cc1cn(C2OC(CO[Si](C)(C)C(C)(C)C)C3(OS(=O)(=O)C=C3N)C2O[Si](C)(C)C(C)(C)C)c(=O)n(CC2CO2)c1=O	E138K		syncytia	>10 µM
C#C[C@@H](O)C1=C[C@@H](n2cnc3c(N)ncnc32)[C@H](O)[C@@H]1O			cytopathic effect	>40 µg/mL
O=C(O)c1cc(Cc2cc(C(c3ccc(O)c(C(=O)O)c3)c3ccc(O)c(C(=O)O)c3)cc(C(=O)O)c2O)ccc1O	IIIB		cytopathic effect / XTT	0.4 µg/mL
CC[C@H](O)C1=C[C@@H](n2cnc3c(N)ncnc32)[C@H](O)[C@@H]1O			cytopathic effect	>200 µg/mL
Nc1ccc(NC(=O)c2ccccc2SSc2ccccc2C(=O)Nc2ccc(N)cc2)cc1			cytopathic effect / XTT	7 µM
COc1cc(OC[C@H]2CC[C@@H](COCc3ccccc3)O2)nc(N)n1	IIIB		syncytia	>10 µM
O=C(NCCCNC(=O)c1cc2cc(O)c(O)cc2[nH]1)c1cc2cc(O)c(O)cc2[nH]1			cytopathic effect / MTT	>3.6 µM
NC(=O)c1cccc(SSc2cccc(C(N)=O)c2)c1			cytopathic effect / XTT	61 µM
O=C1NS(=O)(=O)N(Cc2ccccc2)c2sc(-c3ccccc3)cc21				>400 µg/mL
CCc1c(Sc2cc(C)cc(C)c2)n(COCc2ccccc2)c(=S)[nH]c1=O	IIIB		syncytia	0.006 µM
C=C(C)[C@@H]1CC[C@]2(C(=O)NCCCCCCCC(=O)Nc3ccccc3C(=O)O)CC[C@]3(C)[C@H](CC[C@@H]4[C@@]5(C)CC[C@H](O)C(C)(C)[C@@H]5CC[C@]43C)[C@@H]12	LAI		cytopathic effect / MTT	>3 µM
CCOCn1c(Cc2cccc3ccccc23)c(C(C)C)c(=O)[nH]c1=O	LAV			0.06 µM
CCc1c(Sc2ccccc2)n(COCc2ccccc2)c(=O)[nH]c1=O	IIIB		syncytia	0.002 µM
O=C(O)CCCCCCCCCCCCn1ncnn1			cytopathic effect	>10 µg/mL
CCOCn1c(Cc2ccccc2)c(C(C)C)c(=O)[nH]c1=O	IIIB	RT-E138K	syncytia	0.06 µM
O=C1c2sc(-c3ccccc3)cc2NS(=O)(=O)N1Cc1ccccc1				>400 µg/mL
O=C(Nc1ccc(F)cc1)c1ccccc1SSc1ccccc1C(=O)Nc1ccc(F)cc1			cytopathic effect / XTT	4.5 µM
O=C1c2sc(-c3ccccc3)cc2NS(=O)(=O)N1COCCO				>400 µg/mL
O=C(O)CCCCCCCCCCCn1cnnc1	RF		cytopathic effect	<10 µg/mL
O=C(O)C(O[C@@H]1CC[C@H](n2cc(F)c(=O)[nH]c2=O)C1)P(=O)(O)O	IIIB		syncytia	>250 µM
Cc1c(C)c(S(=O)(=O)NC(N)=NCCCC(N)C(=O)N2CCCC2C#N)c(C)c2c1C(C)(C)OC(C)(C)C2(C)C	IIIB		p24	2.4 µM
COc1cc(OC[C@H]2CC[C@@H](CO)O2)nc(N)n1	IIIB		syncytia	>50 µM
CCOCn1c(Cc2ccccc2)c(CC)c(=O)[nH]c1=O	IIIB	RT-Y181C	syncytia	1.2 µM
Cc1cn(C2OC(CO[Si](C)(C)C(C)(C)C)C3(OS(=O)(=O)C=C3N)C2O[Si](C)(C)C(C)(C)C)c(=O)n(CC(=O)N(CCCl)CCCl)c1=O	E138K		syncytia	>25 µM
Cc1cn([C@@H]2O[C@H](C(COC(=O)c3ccccc3)OC(=O)c3ccccc3)C3(OS(=O)(=O)C=C3N)[C@H]2O[Si](C)(C)C(C)(C)C)c(=O)[nH]c1=O	IIIB		syncytia	>28 µM
CCc1c(Cc2cccc3ccccc23)n(COCCO)c(=O)[nH]c1=O	LAV			0.762 µM
Nc1nc(Cl)cc(OC[C@@H]2O[C@H](COCc3ccccc3)[C@@H](OCc3ccccc3)[C@H]2OCc2ccccc2)n1	IIIB		syncytia	>10 µM
Cc1cn(C2OC(CO[Si](C)(C)C(C)(C)C)C3(OS(=O)(=O)C=C3N)C2O[Si](C)(C)C(C)(C)C)c(=O)n(CCCNC(=O)c2ccc(C(=O)c3ccccc3)cc2)c1=O	IIIB		syncytia	0.16 µM
NC(=O)CCNC(=O)c1ccccc1SCc1ccc([N+](=O)[O-])o1	RF		XTT	0.85 µM
Cc1cc(NS(=O)(=O)c2ccc(Nc3c4ccccc4nc4c(C(=O)Nc5ccc(S(=O)(=O)N=C(N)N)cc5)cccc34)cc2)no1	RF		cytopathic effect / XTT	28.5 µM
O=C(NCc1ccccc1)c1cc2cc(O)c(O)cc2[nH]1			cytopathic effect / MTT	>29 µM
Nc1ccnc(OC[C@H]2CC[C@@H](CO)O2)n1	IIIB		syncytia	>250 µM
O=C(NCCCCNC(=O)c1cc2cc(O)c(O)cc2[nH]1)c1cc2cc(O)c(O)cc2[nH]1			cytopathic effect / MTT	>26 µM
O=C(c1ccccc1SSc1ccccc1C(=O)N1CCSCC1)N1CCSCC1			cytopathic effect / XTT	>42 µM
CC(=O)OCC1OC(SC2C(SC(C)=O)OC(COC(C)=O)C(OC(C)=O)C2OC(C)=O)C(OC(C)=O)C(OC(C)=O)C1OC(C)=O			XTT	48 µg/mL
CC(C)(C)c1ccccc1Sc1c(O)cc(-c2ccc(OCc3cccnc3)cc2)oc1=O			RT activity	>100 µM
C=C(C)[C@@H]1CC[C@]2(C(=O)NCCCCCCCC(=O)N[C@@H](CC(C)C)[C@@H](O)CC(=O)O)CC[C@]3(C)[C@H](CC[C@@H]4[C@@]5(C)CC[C@H](O)C(C)(C)[C@@H]5CC[C@]43C)[C@@H]12	NDK		cytopathic effect / MTT	>1 µM
CCc1c(Sc2cc(C)cc(C)c2)n(COCc2ccccc2)c(=O)[nH]c1=O	IIIB	RT-Y181C	syncytia	0.08 µM
O=C(O)c1cc(C(c2ccc(O)c(C(=O)O)c2)c2ccc(O)c(C(=O)O)c2)ccc1O	IIIB		cytopathic effect / XTT	0.6 µg/mL
CC(=O)OCCOCN1c2cc(-c3ccccc3)sc2C(=O)N(Cc2ccccc2)S1(=O)=O				>400 µg/mL
Cc1c(N)nc(N)nc1OCCOCP(=O)(O)O	IIIB		syncytia	2.7 µM
O=C1c2cc(-c3ccccc3)sc2N(Cc2ccccc2)S(=O)(=O)N1COCc1ccccc1				>400 µg/mL
CCC(C)NC(=O)c1ccccc1SSc1ccccc1C(=O)NC(C)CC			cytopathic effect / XTT	>15 µM
CC[C@@H](O)C1=C[C@@H](n2cnc3c(N)ncnc32)[C@H](O)[C@@H]1O			cytopathic effect	>200 µg/mL
O=C(O)CCCCCCCCCCCCn1nccn1			cytopathic effect	>1 µg/mL
CCOCn1c(Sc2ccccc2)c(C(C)C)c(=O)[nH]c1=O	IIIB	RT-Y181C	syncytia	1.3 µM
Nc1nc(N)nc(OC[C@H]2CC[C@@H](COc3nc(N)nc(N)n3)O2)n1	IIIB		syncytia	>50 µM
Cc1cn([C@@H]2O[C@H](C3CO[Si](C(C)C)(C(C)C)O[Si](C(C)C)(C(C)C)O3)C3(OS(=O)(=O)C=C3N)[C@H]2O)c(=O)[nH]c1=O	IIIB		syncytia	>6.3 µM
COC(=O)CCCCCCCCCCC(=O)O			cytopathic effect	>10 µg/mL
CCc1c(Sc2cc(C)cc(C)c2)n(COCCO)c(=O)[nH]c1=O	IIIB	RT-Y181C	syncytia	0.87 µM
COCn1c(Cc2ccc3ccccc3c2)c(C)c(=O)[nH]c1=O	LAV			25.8 µM

The first 8 rows once more:

SMILES | strain or isolate | mutations | method | result
Cc1cn([C@H]2CC[C@@H](OCC(=O)O)C2)c(=O)[nH]c1=O | IIIB |  | syncytia | >250 µM
O=C(NCCCCNC(=O)c1cc2cc3c(cc2[nH]1)OCO3)c1cc2cc3c(cc2[nH]1)OCO3 |  |  | cytopathic effect / MTT | >200 µM
CCOCn1c(Cc2cccc3ccccc23)c(CC)c(=O)[nH]c1=O | LAV |  |  | 0.104 µM
Nc1nc(OC[C@H]2CC[C@@H](COCc3ccccc3)O2)c2[nH]cnc2n1 | IIIB |  | syncytia | >50 µM
CCCCCCCCCC[N+](C)(C)CCCNCc1c(O)cc2c(c1O)-c1cc(ccc1O)[C@H]1NC(=O)[C@@H]3NC(=O)C4NC(=O)[C@@H](Cc5ccc(c(Cl)c5)Oc5cc3cc(c5O)Oc3ccc(cc3Cl)[C@@H](O)[C@H](NC1=O)C(=O)N[C@@H]2C(=O)O)NC(=O)[C@H](N)c1ccc(O)c(c1)Oc1cc(O)cc4c1 | IIIB |  | syncytia | 2.8 µM
Cc1cn(C2OC(CO[Si](C)(C)C(C)(C)C)C3(OS(=O)(=O)C=C3N)C2O[Si](C)(C)C(C)(C)C)c(=O)n(CC2CO2)c1=O | E138K |  | syncytia | >10 µM
C#C[C@@H](O)C1=C[C@@H](n2cnc3c(N)ncnc32)[C@H](O)[C@@H]1O |  |  | cytopathic effect | >40 µg/mL
O=C(O)c1cc(Cc2cc(C(c3ccc(O)c(C(=O)O)c3)c3ccc(O)c(C(=O)O)c3)cc(C(=O)O)c2O)ccc1O | IIIB |  | cytopathic effect / XTT | 0.4 µg/mL

ECn: concentration that inhibits the pathogen or its effect by n%. An empty or dashed field is not shown.